Compound potency records, mixed from different reports. Data source: NIAID ChemDB in PubChem.

All rows: tests in culture; species: Aspergillus clavatus; measure: MIC

Neighbouring rows are from separate reports. Blank or dashed fields: not listed here.

smiles	read by	strain or isolate	value
N#CSc1ccc2nc(NC(=O)CN3C(=O)S/C(=C/c4ccc(O)cc4)C3=O)sc2c1	broth dilution / visual reading	MTCC 1323	>1000 µg/mL
Cc1nn(-c2ccccc2)c2c1C(c1ccc(Cl)cc1)C(C#N)=C(N)O2	-	MTCC 1323	>1000 µg/mL
Cc1ccc(-c2cc(-c3cc4cc(F)ccc4oc3=O)nc(NS(=O)(=O)c3ccccc3)c2C#N)cc1	turbidity	MTCC 1323	100 µg/mL
CCCCCCN(CCCCCC)c1ccc(/C=C2/SC(=O)N(CC(=O)Nc3nc4ccc(SC#N)cc4s3)C2=O)cc1	broth dilution / visual reading	MTCC 1323	500 µg/mL
CCN1CCN(C(=S)Nc2nc(N3CCN(CC)CC3)c3ccccc3n2)CC1	agar / visual reading	MTCC 1323	200 µg/mL
N#Cc1ccc(Nc2nc(Oc3cccc4cccnc34)nc(N3CCN(c4cccc(Cl)c4)CC3)n2)cc1C(F)(F)F	agar	MTCC 1323	12.5 µg/mL
Clc1nc(NC2CC2)nc(N2CCN(Cc3ccccc3)CC2)n1	agar	MTCC 1323	100 µg/mL
N#Cc1c(-c2cccc(O)c2)cc(-c2cc3cc(F)ccc3oc2=O)nc1NS(=O)(=O)c1ccccc1	turbidity	MTCC 1323	100 µg/mL
Cc1ccc(NC(=O)CSc2nnc(-c3ccc4ncccc4c3)o2)cc1	agar	-	100 µg/mL
Clc1nc(NC2CC2)nc(N2CCN(c3ncccn3)CC2)n1	agar	MTCC 1323	25 µg/mL
S=C(Nc1cccc(Cl)c1)Nc1nc(N2CCN(c3ccccc3)CC2)c2ccccc2n1	agar / visual reading	MTCC 1323	3.12 µg/mL
O=C(CSc1nnc(-c2ccc3ncccc3c2)o1)Nc1nc2ccc(Cl)cc2s1	agar	-	50 µg/mL
Cc1nn(-c2ccccc2)c2c1C(c1ccc(O)cc1)C(C#N)=C(N)O2	-	MTCC 1323	1000 µg/mL
N#Cc1c(-c2ccccc2)cc(-c2cc3cc(F)ccc3oc2=O)nc1NS(=O)(=O)c1ccccc1	turbidity	MTCC 1323	500 µg/mL
CC(=O)N1CCN(c2nc(Cl)nc(NC3CC3)n2)CC1	agar	MTCC 1323	100 µg/mL
CCOC(=O)N1CCN(C(=S)Nc2nc(N3CCN(CC)CC3)c3ccccc3n2)CC1	agar / visual reading	MTCC 1323	200 µg/mL
N#Cc1ccc(Nc2nc(Oc3cccc4cccnc34)nc(N3CCCCC3)n2)cc1C(F)(F)F	agar	MTCC 1323	50 µg/mL
Cc1nn(-c2ccccc2)c2c1C(c1ccccc1Cl)c1c(nc(=S)[nH]c1N)O2	-	MTCC 1323	>1000 µg/mL
CCN1CCN(c2nc(Nc3ccc(C(=O)/C=C/c4ccccc4)cc3)nc3ccccc23)CC1	agar / visual reading	MTCC 1323	400 µg/mL
COc1ccc(C2c3c(nc(=S)[nH]c3N)Oc3c2c(C)nn3-c2ccccc2)cc1	-	MTCC 1323	>1000 µg/mL
S=C(Nc1ccc(Cl)cc1)Nc1nc(N2CCN(c3ccccc3)CC2)c2ccccc2n1	agar / visual reading	MTCC 1323	400 µg/mL
N#CSc1ccc2nc(N)sc2c1	broth dilution / visual reading	MTCC 1323	500 µg/mL
O=C(CSc1nnc(-c2ccc3ncccc3c2)o1)Nc1nc2ccc(F)cc2s1	agar	-	100 µg/mL
N#Cc1c(-c2cccc(Cl)c2)cc(-c2cc3cc(F)ccc3oc2=O)nc1NS(=O)(=O)c1ccccc1	turbidity	MTCC 1323	>1000 µg/mL
N#Cc1ccc(Nc2nc(Oc3cccc4cccnc34)nc(N3CCN(c4ccccn4)CC3)n2)cc1C(F)(F)F	agar	MTCC 1323	50 µg/mL
O=C(CSc1nnc(-c2ccc3ncccc3c2)o1)Nc1ccc(Br)cc1	agar	-	25 µg/mL
CCN1CCN(c2nc(NCCNc3ncnc4c(Br)cc(Br)cc34)nc(NC3CC3)n2)CC1	agar	MTCC 1323	100 µg/mL
N#CSc1ccc2nc(NC(=O)CN3C(=O)S/C(=C/c4ccccc4)C3=O)sc2c1	broth dilution / visual reading	MTCC 1323	>1000 µg/mL
CN1CCN(c2nc(Nc3ccc(C#N)c(C(F)(F)F)c3)nc(Oc3cccc4cccnc34)n2)CC1	agar	MTCC 1323	100 µg/mL
N#Cc1c(-c2ccc(Cl)cc2)cc(-c2cc3cc(F)ccc3oc2=O)nc1NS(=O)(=O)c1ccccc1	turbidity	MTCC 1323	1000 µg/mL
CC(C)N1CCN(c2nc(NCCNc3ncnc4c(Br)cc(Br)cc34)nc(NC3CC3)n2)CC1	agar	MTCC 1323	100 µg/mL
CCN1CCN(c2nc(NC(=S)N3CCN(C)CC3)nc3ccccc23)CC1	agar / visual reading	MTCC 1323	3.12 µg/mL
Clc1ccc(C(c2ccccc2)N2CCN(c3nc(NCCNc4ncnc5c(Br)cc(Br)cc45)nc(NC4CC4)n3)CC2)cc1	agar	MTCC 1323	25 µg/mL
Cc1ccc(NC(=S)Nc2nc(N3CCN(c4ccccc4)CC3)c3ccccc3n2)cc1	agar / visual reading	MTCC 1323	100 µg/mL
Brc1cc(Br)c2ncnc(NCCNc3nc(NC4CC4)nc(N4CCN(C(c5ccccc5)c5ccccc5)CC4)n3)c2c1	agar	MTCC 1323	12.5 µg/mL
CCCCCCN(CCCCCC)c1ccc(/C=C2/SC(=O)NC2=O)cc1	broth dilution / visual reading	MTCC 1323	>1000 µg/mL